{"source": "patent US20200245620A1", "about": "(priority 2018, published 2020)", "tested_on": "Carbendazim-resistant fusarium asiaticum", "assay": "DON toxin synthesis capability in GYEP liquid culture", "assay_type": "cell-based", "conditions": "different doses of jinggangmycin; dry weight of hyphae vs blank control"}
{"smiles": "OCC1=C[C@H](N[C@H]2C[C@H](CO)[C@@H](O[C@@H]3O[C@H](CO)[C@@H](O)[C@H](O)[C@H]3O)[C@H](O)[C@H]2O)[C@H](O)[C@@H](O)[C@@H]1O", "note": "[Jinggangmycin]", "values": [{"measurement": "inhibitory effect on the growth of the fusarium head blight fungi cultured in liquid", "result": "does not have the inhibitory effect on the growth"}]}
